A mixed list of measured activities; the numbers were collected in NIAID ChemDB.

Shared fields: whole-cell or culture tests; organism: HIV-1; cells: MT-4; endpoint: EC50

Lines come from different laboratories, so protocols vary. An empty or dashed field is not shown. ECn: concentration that inhibits the pathogen or its effect by n%.

SMILES,strain or isolate,mutations,read by,conditions,result
N#CCN1C(=O)N(Cc2cccc(F)c2)S(=O)(=O)c2cscc21,MN,-,syncytia,-,0.2 µM
O=C1c2ccccc2C(=O)N1CCOC(=S)N(C(=O)c1ccco1)c1ccc([N+](=O)[O-])cc1,IIIB,RT-K103R V179D P225H,cytopathic effect / MTT,-,>100 µM
Cc1cn([C@H]2C[C@H](N=[N+]=[N-])[C@@H](CO)O2)c(=O)[nH]c1=O,EFV-resistant (RT K103R V179D P225H),RT-K103R V179D P225H,cytopathic effect / MTT,-,0.02 µM
COc1ccc2c(c1)N(C(=O)OC(C)C)[C@@H](CSC)C(=S)N2,IIIB Recombinant wild type,-,cytopathic effect / MTT,-,0.0005 µM
NS(=O)(=O)c1ccc(NC(=O)CSc2nnnn2-c2cccc(Cl)c2Cl)c(Cl)c1,-,-,p24,50% human serum,<0.25 µM
O=C1c2ccccc2C(=O)N1CCOC(=S)N(C(=O)c1ccc(Cl)cc1)c1ccc(Cl)cc1,IIIB,RT-K103R V179D P225H,cytopathic effect / MTT,-,>100 µM
Cc1cn([C@H]2C[C@H](N=[N+]=[N-])[C@@H](CO)O2)c(=O)[nH]c1=O,NL4-3,-,cytopathic effect / MTT,-,0.004 µg/mL
O=C1N(Cc2ccccc2)c2cscc2S(=O)(=O)N1Cc1ccccc1,NDK,-,syncytia,-,2.1 µM
O=C(CSc1nnnn1-c1cccc(Cl)c1Cl)Nc1ccccc1[N+](=O)[O-],-,-,p24,50% human serum,<0.125 µM
O=C(O)c1ccc2ccc(/C=C/c3cc(O)c(O)c(O)c3)nc2c1O,-,-,cytopathic effect / MTT,-,1.2 µM
C1CNCCNCCCN(CCCN2CCCNCCNCCCNCC2)CCNC1,HE,-,cytopathic effect / MTT,-,0.5 µM
c1cc(CCN2CCCNCCNCCCNCC2)ccc1CCN1CCCNCCNCCCNCC1,RF,-,cytopathic effect / MTT,-,>250 µg/mL
CC(=O)c1ccc(C)cc1NC(C(N)=O)c1c(Cl)cccc1Cl,IIIB Recombinant wild type,-,cytopathic effect / MTT,-,0.00512 µM
CC(C)=CCc1c(O)cc(O)c2c1O[C@H](c1ccc(O)cc1)CC2=O,IIIB,-,MTT,-,25 µg/mL
O=C1NC(=O)C(=Cc2cc(O)c(O)c(O)c2)C(=O)N1,-,-,cytopathic effect / MTT,-,>50 µM
CC(C)=CCc1c(O)ccc(C(=O)/C=C/c2ccc(O)cc2)c1O,IIIB,-,MTT,-,>20 µg/mL
COc1ccc(S(=O)(=O)N(CC(C)C)C[C@@H](O)[C@H](Cc2ccccc2)NC(=O)O[C@H]2CCO[C@H]3OCC[C@H]32)cc1,NL4-3,L10I I54V K20R L24I V32I L33F M36I M46I I54M L63P K70Q V82I I84V L89M,p24 / luminescence,-,>1 µM
Cc1cc(-c2ccc(C#N)cc2)cc(C)c1Oc1ccnc(S(=O)(=O)CC(=O)Nc2ccc(C#N)cc2)n1,RES056,-,MTT,-,0.226 µM
CC(C)=CCc1cc(-c2oc3cc(O)c(CC=C(C)C)c(O)c3c(=O)c2O)ccc1O,IIIB,-,cytopathic effect / MTT,-,>100 µg/mL
CC(C)CN(C[C@@H](O)[C@H](Cc1ccccc1)NC(=O)O[C@H]1CCOC1)S(=O)(=O)c1ccc(N)cc1,NL4-3,-,p24 / luminescence,-,0.029 µM
Cc1cn([C@H]2C=C[C@@H](COC(=O)NCCSC(=O)OC[C@@H]3CC[C@H](n4cnc5c(=O)[nH]cnc54)O3)O2)c(=O)[nH]c1=O,EFV-resistant (RT K103R V179D P225H),RT-K103R V179D P225H,cytopathic effect / MTT,-,>20 µM
COc1ccc(Oc2c(C(=O)O)oc3cc(O)cc(O)c3c2=O)c(OC)c1,IIIB,-,cytopathic effect / MTT,-,>25 µg/mL
Cc1cc(C)c(-n2nnnc2SCC(=O)Nc2ccccc2I)c(C)c1,-,-,p24,10% FBS,<0.312 µM
C1CNCCNCCCN[C@H]([C@@H]2CNCCCNCCNCCCN2)CNC1,IIIB,-,plaque count,-,0.43 µM
O=c1[nH]cnc2c1ncn2[C@H]1CC[C@@H](CO)O1,Recombinant wild type,-,cytopathic effect / MTT,-,11.2 µM
CC(C)CN(C[C@@H](O)[C@H](Cc1cc(F)cc(F)c1)NC(=O)O[C@H]1CCO[C@H]2OCC[C@H]21)S(=O)(=O)c1ccc2nc(NC(C)C)sc2c1,NL4-3,-,p24 / luminescence,-,0.0013 µM
O=C1/C(=C/c2ccc(O)c(O)c2)CCC/C1=C\c1ccc(O)c(O)c1,-,-,cytopathic effect / MTT,-,>7.4 µM
Cc1ccnc2c1NC(=O)c1cccnc1N2C1CC1,MN,-,syncytia,-,0.02 µM
COC(=O)N[C@H](C(=O)N[C@@H](Cc1ccccc1)[C@@H](O)CN(Cc1ccc(-c2ccccn2)cc1)NC(=O)[C@@H](NC(=O)OC)C(C)(C)C)C(C)(C)C,NL4-3,L10I L33I M36I M46I I54V K55R I62V L63P A71V G73S V82T L90M I93L,p24 / luminescence,-,>1 µM
O=C1/C(=C/c2cc(O)c(O)c(O)c2)CN(Cc2ccccc2)C/C1=C\c1cc(O)c(O)c(O)c1,-,-,cytopathic effect / MTT,-,30 µM
Clc1cc(CN2CCCNCCNCCCNCC2)c(Cl)cc1CN1CCCNCCNCCCNCC1,RF,-,cytopathic effect / MTT,-,0.12 µg/mL
CO[P@](=O)(c1cc(C)cc(/C=C/C#N)c1)c1c(C(N)=O)[nH]c2ccc(Cl)c(F)c12,BH10,-,-,-,0.00028 µM
CCn1c(=O)c(C)cn([C@@H]2O[C@H](CO[Si](C)(C)C(C)(C)C)C3(OS(=O)(=O)C=C3N)[C@H]2O[Si](C)(C)C(C)(C)C)c1=O,Recombinant mutant,RT-A98S,cytopathic effect / MTT,-,0.025 µM
Nc1ccn([C@H]2CC[C@@H](CO)O2)c(=O)n1,IIIB,-,cytopathic effect / MTT,-,0.0098 µM
c1ccc2c(CN3CCCNCCNCCCNCC3)cc(CN3CCCNCCNCCCNCC3)cc2c1,NL4-3,-,cytopathic effect / MTT,-,0.2 µg/mL
COc1cc2c(cc1/C=C/C(=O)c1ccc(O)cc1)CC(C)(C)C(C)O2,IIIB,-,cytopathic effect / MTT,-,>20 µg/mL
Cc1cc(C#N)cc(C)c1Oc1nc(Nc2ccc(C#N)cc2)nc(N)c1Br,IIIB,E138K,MTT,-,0.007 µM
O=C1c2ccccc2C(=O)N1CCOC(=S)N(C(=O)c1ccccc1)c1ccccc1,N119 nevirapine-resistant (RT Y181C),RT-Y181C,cytopathic effect / MTT,-,>100 µM
COc1cncc(-c2cnc(C(C)(C)N3CCN(C[C@@H](O)C[C@@H](Cc4nnc(-c5ccccc5)o4)C(=O)N[C@H]4c5ccccc5OC[C@H]4O)[C@H](C(=O)NCC(F)(F)F)C3)o2)c1,K-60 Clinical isolate,PR-L10I M46I I54V Q58E L63P I64V V77I V82F I84V L90M I93L,p24,-,<0.25 µM
CCOC(=O)CC1C/C(=C\c2ccc(O)c(O)c2)C(=O)/C(=C/c2ccc(O)c(O)c2)C1,-,-,cytopathic effect / MTT,-,>5 µM
CC1(C)C=Cc2cc(C(=O)CC(=O)c3ccc(O)cc3)c(O)cc2O1,IIIB,-,cytopathic effect / MTT,-,>100 µg/mL
S=C(NCCc1ccccn1)Nc1ccc(Br)cn1,IIIB,RT-K103R V179D P225H,cytopathic effect / MTT,-,>100 µM
Cc1cn([C@H]2C=C[C@@H](COC(=O)NCCSC(=O)OC[C@@H]3C=C[C@H](n4cc(C)c(=O)[nH]c4=O)O3)O2)c(=O)[nH]c1=O,EFV-resistant (RT K103R V179D P225H),RT-K103R V179D P225H,cytopathic effect / MTT,-,14 µM
CC(C)(C)NC(=O)[C@@H]1CN(Cc2cccnc2)CCN1C[C@@H](O)C[C@@H](Cc1ccccc1)C(=O)N[C@H]1c2ccccc2C[C@H]1O,NL4-3 WT,-,cytopathic effect / MTT,-,0.041 µM
CC(C)=CCN1Cc2cc(Cl)cc3[nH]c(=S)n(c23)C[C@@H]1C,Recombinant mutant,RT-E138A,cytopathic effect / MTT,-,0.182 µM
CN[C@H]1CO[C@@H]2OCC[C@H](OC(=O)N[C@@H](Cc3ccccc3)[C@H](O)CN(CC(C)C)S(=O)(=O)c3ccc4nc(NC5CC5)sc4c3)[C@@H]21,NL4-3,-,p24 / luminescence,-,0.0042 µM
Cc1c(O)cccc1C(=O)N[C@@H](CSc1ccccc1)[C@H](O)CN1C[C@H]2CCCC[C@H]2C[C@H]1C(=O)NC(C)(C)C,NL4-3,-,cytopathic effect / MTT,-,0.015 µM
COCOc1cc(O)c(C(=O)/C=C/c2ccc(OCOC)c(OCOC)c2)c(OCOC)c1,IIIB,-,cytopathic effect / MTT,-,>20 µg/mL
CC(C)CN(C[C@@H](O)[C@H](Cc1ccccc1)NC(=O)O[C@H]1CCOC1)S(=O)(=O)c1ccc(N)cc1,NL4-3,L10F V32I L33F M46L I54M A71V,p24 / luminescence,-,>1 µM
C1CNCCNCCCN(CCN2CCCNCCNCCCNCC2)CCNC1,IIIB,-,cytopathic effect / MTT,-,18.6 µM
Cc1cc2c3c(c1)-c1c(O)cc(-c4cc5ccc(O)cc5o4)cc1OC3(c1ccc(O)cc1O)Oc1cc(O)ccc1-2,IIIB,-,MTT,-,>20 µg/mL
CCCc1nnc(C[C@H](C[C@H](O)CN2CCN(C(C)(C)c3ncc(-c4ccc(F)cc4)o3)C[C@H]2C(=O)NCC(F)(F)F)C(=O)N[C@H]2c3ccccc3OC[C@H]2O)o1,V-18 Clinical isolate,PR-L10I M36I N37D M46I R57K L63P A71V G73S I84V L90M I93L,p24,-,<0.063 µM
Cc1cc(/C=C/C#N)cc(C)c1Oc1ccnc(S(=O)(=O)CC(=O)Nc2ccc(F)cc2)n1,-,K103N,MTT,-,0.006 µM
CCN1C(=O)N(Cc2cccc(Cl)c2)S(=O)(=O)c2cscc21,HE,-,syncytia,-,3.1 µM
CCN[C@H]1CO[C@@H]2OCC[C@H](OC(=O)N[C@@H](Cc3cccc(OC)c3)[C@H](O)CN(CC(C)C)S(=O)(=O)c3ccc4nc(NC(C)C)sc4c3)[C@@H]21,NL4-3,-,p24 / luminescence,-,0.0027 µM
O=C(N[C@H]1c2ccccc2OC[C@H]1O)[C@H](Cc1nnco1)C[C@H](O)CN1CCN(Cc2ccc(-c3ccc(Cl)cc3)o2)C[C@H]1C(=O)NCC(F)(F)F,K-60 Clinical isolate,PR-L10I M46I I54V Q58E L63P I64V V77I V82F I84V L90M I93L,p24,-,<0.063 µM
O=C1/C(=C/c2cc(O)c(O)c(O)c2)CCC/C1=C\c1cc(O)c(O)c(O)c1,-,-,cytopathic effect / MTT,-,>50 µM
Fc1c(F)c(CN2CCCNCCNCCCNCC2)c(F)c(F)c1CN1CCCNCCNCCCNCC1,AOM,-,cytopathic effect / MTT,-,0.067 µg/mL
Cc1nnc(C[C@H](C[C@H](O)CN2CCN(C(C)(C)c3ncc(-c4ccc(Cl)cc4)o3)C[C@H]2C(=O)NCC(F)(F)F)C(=O)N[C@H]2c3ccccc3OC[C@H]2O)o1,K-60 Clinical isolate,PR-L10I M46I I54V Q58E L63P I64V V77I V82F I84V L90M I93L,p24,-,<0.031 µM
Cc1cc(C)c(-n2nnnc2SCC(=O)Nc2ccc([N+](=O)[O-])cc2C)c(C)c1,-,-,p24,10% FBS,<1.25 µM
COc1ccc(-c2coc3cc(O)c(CC=C(C)C)c(O)c3c2=O)cc1O,IIIB,-,MTT,-,>100 µg/mL
CCCc1nnc(C[C@H](C[C@H](O)CN2CCN(Cc3ccc(-c4ccc(Cl)cc4)o3)C[C@H]2C(=O)NCC(F)(F)F)C(=O)N[C@H]2c3ccccc3OC[C@H]2O)o1,K-60 Clinical isolate,PR-L10I M46I I54V Q58E L63P I64V V77I V82F I84V L90M I93L,p24,-,<0.008 µM

The last 4 rows once more:

SMILES	strain or isolate	mutations	read by	conditions	result
Cc1nnc(C[C@H](C[C@H](O)CN2CCN(C(C)(C)c3ncc(-c4ccc(Cl)cc4)o3)C[C@H]2C(=O)NCC(F)(F)F)C(=O)N[C@H]2c3ccccc3OC[C@H]2O)o1	K-60 Clinical isolate	PR-L10I M46I I54V Q58E L63P I64V V77I V82F I84V L90M I93L	p24	-	<0.031 µM
Cc1cc(C)c(-n2nnnc2SCC(=O)Nc2ccc([N+](=O)[O-])cc2C)c(C)c1	-	-	p24	10% FBS	<1.25 µM
COc1ccc(-c2coc3cc(O)c(CC=C(C)C)c(O)c3c2=O)cc1O	IIIB	-	MTT	-	>100 µg/mL
CCCc1nnc(C[C@H](C[C@H](O)CN2CCN(Cc3ccc(-c4ccc(Cl)cc4)o3)C[C@H]2C(=O)NCC(F)(F)F)C(=O)N[C@H]2c3ccccc3OC[C@H]2O)o1	K-60 Clinical isolate	PR-L10I M46I I54V Q58E L63P I64V V77I V82F I84V L90M I93L	p24	-	<0.008 µM